Pooled drug test results. Numbers come from NIAID ChemDB, via PubChem.

Common to all: tests in culture; species: Candida albicans

Lines come from different laboratories, so protocols vary. Inhibition is in % at the dose shown (toxicity tests: loss of growth or viability). Blank or dashed fields: not listed here. ECn: concentration that inhibits the pathogen or its effect by n%. MIC50, MIC90 and the like: level of inhibition, or share of isolates inhibited.

SMILES,strain,endpoint,dose,conditions,method,result
Cc1ccc(-c2c3c(N)c4c(nc3nc3c2c(C)nn3-c2ccccc2)CCCC4)cc1,CCC 129,MIC50,,,broth dilution / absorbance,31.2 µg/mL
NCCCC[C@H](NC(=O)[C@@H](N)CCCCN)C(=O)N[C@@H](CCC(N)=O)C(=O)N[C@@H](CCCN=C(N)N)C(=O)O,ATCC 10231,inhibition,12.5 µM,,,0%
Fc1ccccc1COc1ccc(C(c2ccc3ccccc3c2)n2ccnc2)cc1,16 strains,Mean MIC,,,,36.6 µg/mL
C=CCSS(=O)CC=C,Clinical Isolate 3072,MIC50,,,broth dilution,0.1 µg/mL
C[C@@H](N1CCN(Cc2cn(-c3ccc(F)cc3)c3cc(Cl)ccc23)CC1)[C@](O)(Cn1cncn1)c1ccc(F)cc1F,ATCC MYA-1003,MIC80,,,resazurin,>128 µg/mL
COc1ccc(C(Cc2ccc(Cl)cc2)n2ccnc2)cc1,34 strains,Geometric mean MIC,,,,15.74 µg/mL
Cc1ccc(-c2c3c(N)c4c(nc3nc3c2c(C)nn3-c2ccccc2)CCC4)cc1,CCC 126,MIC50,,,broth dilution / absorbance,62.5 µg/mL
CC(=O)N1CCN(c2ccc(OC[C@H]3CO[C@](Cn4ccnc4)(c4ccc(Cl)cc4Cl)O3)cc2)CC1,10 isolates,EC90,,pH 7,broth dilution,0.03 µg/mL
Oc1ccc(C(c2nccc3ccccc23)n2ccnc2)cc1,44 strains,Mean MIC,,,,>256 µg/mL
Cc1ccc(-c2c3c(N)c4c(nc3nc3c2c(C)nn3-c2ccccc2)CCCCC4)cc1,CCC 130,MIC80,,,broth dilution / absorbance,31.2 µg/mL
C[C@@H](N1CCN(Cc2cn(Cc3ccc(C(F)(F)F)cc3)c3c(F)cccc23)CC1)[C@](O)(Cn1cncn1)c1ccc(F)cc1F,ATCC 90028,MIC80,,,resazurin,0.125 µg/mL
Clc1ccc(COc2ccc(C(c3nccc4ccccc34)n3ccnc3)cc2)c(Cl)c1,17 strains,MIC90,,,,≥256 µg/mL
COc1ccc(C(Cc2ccc(N)cc2)n2ccnc2)cc1,34 strains,Geometric mean MIC,,,,4.12 µg/mL
CC(C)(O)c1cn(-c2ccc([N+](=O)[O-])cc2)nn1,URM 4820,inhibition,2048 µg/mL,,broth dilution,0%
CC(=O)OC[C@H]1O[C@@H](O[C@@H]2[C@@H](N=[N+]=[N-])[C@H](O)[C@H](O)[C@H]3OC(C)(C)O[C@H]32)[C@H](OC(C)=O)[C@@H](OC(C)=O)[C@H]1OC(C)=O,ATCC 10231,inhibition,7.8 µg/mL,,broth dilution / turbidity,7.28%
Cc1ccc(C(c2nccc3ccccc23)n2ccnc2)cc1,44 strains,Mean MIC,,,,101.2 µg/mL
CC(O)Cc1ccc(Cn2cc(CN3CCN([C@H](C)[C@](O)(Cn4cncn4)c4ccc(F)cc4F)CC3)c3ccccc32)cc1,ATCC 90028,MIC80,,,resazurin,4 µg/mL
CC(C)(O)c1cn(-c2ccc3ccccc3c2)nn1,URM 4987,inhibition,2048 µg/mL,,broth dilution,0%
N=C(N)c1ccc2nc(-c3ccc(-c4nc5ccc(C(=N)N)cc5[nH]4)[nH]3)[nH]c2c1,A39,MFC,,,,0.78 µg/mL
C[C@@H](c1ncncc1F)[C@](O)(Cn1cncn1)c1ccc(F)cc1F,15 isolates,MIC,,pH 5,broth dilution,0.03 µg/mL
C[C@@H](N1CCN(Cc2cn(Cc3ccc(Cl)cc3Cl)c3ccccc23)CC1)[C@](O)(Cn1cncn1)c1ccc(F)cc1F,ATCC MYA-1003,MIC80,,,resazurin,4 µg/mL
Clc1ccccc1C(c1ccccc1)(c1ccccc1)n1ccnc1,10 isolates,EC90,,pH 5,broth dilution,0.25 µg/mL
COc1ccc(C(Cc2ccccc2F)n2ccnc2)cc1,34 strains,Geometric mean MIC,,,,143.8 µg/mL
CCC(C)CC(C)CCCCCCCCC(=O)N[C@H]1C[C@@H](O)[C@H](NCCN)NC(=O)[C@@H]2[C@@H](O)CCN2C(=O)[C@H]([C@H](O)CCN)NC(=O)[C@H]([C@H](O)[C@@H](O)c2ccc(O)cc2)NC(=O)[C@@H]2C[C@@H](O)CN2C(=O)[C@H]([C@@H](C)O)NC1=O,10 isolates,EC90,,pH 6,broth dilution,0.06 µg/mL
COc1ccc(C(Cc2ccc(-n3cccc3)cc2)n2ccnc2)cc1,34 strains,Geometric mean MIC,,,,>256 µg/mL
Oc1ccc2c(c1)CCc1ccc(cc1)Oc1cc(ccc1O)CCc1cccc(O)c1-2,YEM30,MIC80,,,broth dilution,16 µg/mL
C=CCc1ccc(OC)c(OC)c1,3043,MIC90,,,turbidity,350 µg/mL
CC(C)(O)c1cn(-c2cccc3ccccc23)nn1,URM 4127,inhibition,2048 µg/mL,,broth dilution,0%
C[C@H]1[C@H](O)[C@@H](C)/C=C/C=C/C=C/C=C/C=C/C=C/C=C/[C@H](O[C@@H]2O[C@H](C)[C@@H](O)[C@H](N)[C@@H]2O)C[C@@H]2O[C@](O)(C[C@@H](O)C[C@@H](O)CC[C@H](O)[C@@H](O)C[C@@H](O)CC(=O)O[C@H]1C)C[C@H](O)[C@H]2C(=O)O,12 isolates,MFC50,,,,0.5 µg/mL
CSc1ccc(C(c2nccc3ccccc23)n2ccnc2)cc1.O=[N+]([O-])O,44 strains,Mean MIC,,,,160.9 µg/mL
OC(CN1CCN(c2ccc(OCc3ccncc3)cc2)CC1)(Cn1cncn1)c1ccc(F)cc1F,276,MIC80,,,,2 µg/mL
Clc1ccc(COc2ccc(C(c3ccc4ccccc4c3)n3ccnc3)cc2)c(Cl)c1,16 strains,Mean MIC,,,,≥256 µg/mL
Cc1nn(-c2ccccc2)c2nc3nc4c(c(N)c3c(-c3ccc(Cl)cc3)c12)CCCC4,ATCC 10231,MIC50,,,broth dilution / absorbance,125 µg/mL
Cc1ccc(-n2cc(C(C)(C)O)nn2)cc1C,URM 4990,inhibition,2048 µg/mL,,broth dilution,0%

Repeating the final 4 entries:

SMILES | strain | endpoint | dose | conditions | method | result
OC(CN1CCN(c2ccc(OCc3ccncc3)cc2)CC1)(Cn1cncn1)c1ccc(F)cc1F | 276 | MIC80 |  |  |  | 2 µg/mL
Clc1ccc(COc2ccc(C(c3ccc4ccccc4c3)n3ccnc3)cc2)c(Cl)c1 | 16 strains | Mean MIC |  |  |  | ≥256 µg/mL
Cc1nn(-c2ccccc2)c2nc3nc4c(c(N)c3c(-c3ccc(Cl)cc3)c12)CCCC4 | ATCC 10231 | MIC50 |  |  | broth dilution / absorbance | 125 µg/mL
Cc1ccc(-n2cc(C(C)(C)O)nn2)cc1C | URM 4990 | inhibition | 2048 µg/mL |  | broth dilution | 0%